Values from PubChem BioAssay AID1259414 (Drosophila RNAi Screening Center, 2018)

- Screen: 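Fly genes that alter Wolbachia amount inside host cells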 (primary screen)
- System: Drosophila JW18 cells infected with Wolbachia
- Reagents: long dsRNA against Drosophila genes, 0.25 µg dsRNA per well of a 384-well plate
- Time to read-out: 5 days
- Treatment: cells persistently infected with Wolbachia before knock-down; no added drug
- Detection: 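Automated imaging of bacterial rRNA staining divided by host cell count, reported as plate-normalised robust z-score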
- Reading the numbers: Wolbachia per cell robust z: higher = more Wolbachia per host cell than the plate typical
- Hit rule: 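Active if absolute robust z reaches 1.5 in two or more of three replicates, leaving out multi- or no-target dsRNAs, genes unexpressed in JW18 and A1 wells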
In all, the deposit lists about 24,000 reagents; this is a random part of those with a known target gene and a result. In the full data, about 1,210 (5%) were called active. 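Inactive calls also include excluded dsRNAs with several or no targets, genes unexpressed in JW18, and well A1, regardless of score.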 The numbers tell different reagents against one gene apart. Names joined by + are all predicted targets of the reagent. No sequences are given here.

With knock-down of l(1)G0289 #1 the results were Wolbachia per cell robust z, rep 1 = -0.262; Wolbachia per cell robust z, rep 2 = 0.408; Wolbachia per cell robust z, rep 3 = -0.513; inactive. After knock-down of l(1)G0289 #2, the screen gave Wolbachia per cell robust z, rep 1 = -0.00915; Wolbachia per cell robust z, rep 2 = -0.379; Wolbachia per cell robust z, rep 3 = 0.331; inactive. Pmi + PGRP-LD + Cralbp scored Wolbachia per cell robust z, rep 1 = 0.134; Wolbachia per cell robust z, rep 2 = -1.51; Wolbachia per cell robust z, rep 3 = -2.78; inactive. With knock-down of CG5334 the results were Wolbachia per cell robust z, rep 1 = -0.0463; Wolbachia per cell robust z, rep 2 = -0.507; Wolbachia per cell robust z, rep 3 = -0.581; inactive. After knock-down of CG18747 #1, the screen gave Wolbachia per cell robust z, rep 1 = 0.241; Wolbachia per cell robust z, rep 2 = 0.668; Wolbachia per cell robust z, rep 3 = 0.355; inactive. After knock-down of CG18747 #2 the results were Wolbachia per cell robust z, rep 1 = 0.264; Wolbachia per cell robust z, rep 2 = 0.0407; Wolbachia per cell robust z, rep 3 = 0.633; inactive.

CG8064 showed Wolbachia per cell robust z, rep 1 = 1.67; Wolbachia per cell robust z, rep 2 = -0.929; Wolbachia per cell robust z, rep 3 = -3.62; inactive. With knock-down of MTA1-like #1, the screen gave Wolbachia per cell robust z, rep 1 = -0.531; Wolbachia per cell robust z, rep 2 = -0.0696; Wolbachia per cell robust z, rep 3 = -0.828; inactive. After knock-down of MTA1-like #2, the screen gave Wolbachia per cell robust z, rep 1 = -0.585; Wolbachia per cell robust z, rep 2 = -1.97; Wolbachia per cell robust z, rep 3 = -1.37; inactive. Against MTA1-like #3, the values are Wolbachia per cell robust z, rep 1 = -1.58; Wolbachia per cell robust z, rep 2 = 1.34; Wolbachia per cell robust z, rep 3 = 0.832; inactive. With knock-down of MTA1-like #4 the results were Wolbachia per cell robust z, rep 1 = 0.905; Wolbachia per cell robust z, rep 2 = -0.256; Wolbachia per cell robust z, rep 3 = 0.204; inactive. CG15093 #1 gave Wolbachia per cell robust z, rep 1 = -0.059; Wolbachia per cell robust z, rep 2 = -0.909; Wolbachia per cell robust z, rep 3 = -0.542; inactive.

CG15093 #2 scored Wolbachia per cell robust z, rep 1 = 1.47; Wolbachia per cell robust z, rep 2 = 1.19; Wolbachia per cell robust z, rep 3 = -4.9; inactive. For Mtl, the entry reads Wolbachia per cell robust z, rep 1 = -4.49; Wolbachia per cell robust z, rep 2 = -0.703; Wolbachia per cell robust z, rep 3 = -0.355; inactive. sas scored Wolbachia per cell robust z, rep 1 = -0.913; Wolbachia per cell robust z, rep 2 = 0.449; Wolbachia per cell robust z, rep 3 = -0.679; inactive. After knock-down of wap the results were Wolbachia per cell robust z, rep 1 = 0.363; Wolbachia per cell robust z, rep 2 = -0.0465; Wolbachia per cell robust z, rep 3 = 0.366; inactive. CG33080 #1 showed Wolbachia per cell robust z, rep 1 = 1.01; Wolbachia per cell robust z, rep 2 = -1.82; Wolbachia per cell robust z, rep 3 = 0.507; inactive. CG33080 #2 showed Wolbachia per cell robust z, rep 1 = 1.2; Wolbachia per cell robust z, rep 2 = 1.28; Wolbachia per cell robust z, rep 3 = 0.951; inactive.

For CG33080 #3, the entry reads Wolbachia per cell robust z, rep 1 = 0.685; Wolbachia per cell robust z, rep 2 = -4.33; Wolbachia per cell robust z, rep 3 = 0.847; inactive. Against CG33080 #4 the deposit lists Wolbachia per cell robust z, rep 1 = -3.23; Wolbachia per cell robust z, rep 2 = 0.163; Wolbachia per cell robust z, rep 3 = 0.634; inactive. After knock-down of Cyp4g1 #1, the screen gave Wolbachia per cell robust z, rep 1 = -0.89; Wolbachia per cell robust z, rep 2 = -5.14; Wolbachia per cell robust z, rep 3 = -0.44; inactive. Against Cyp4g1 #2, the entry reads Wolbachia per cell robust z, rep 1 = -6.53; Wolbachia per cell robust z, rep 2 = 0.566; Wolbachia per cell robust z, rep 3 = -0.643; inactive. After knock-down of Tfb5 + CG31917, the record shows Wolbachia per cell robust z, rep 1 = 0.0302; Wolbachia per cell robust z, rep 2 = 0.99; Wolbachia per cell robust z, rep 3 = 0.951; inactive. After knock-down of ND-23, the record shows Wolbachia per cell robust z, rep 1 = -0.654; Wolbachia per cell robust z, rep 2 = 0.572; Wolbachia per cell robust z, rep 3 = -0.489; inactive.

modSP #1 showed Wolbachia per cell robust z, rep 1 = 0.412; Wolbachia per cell robust z, rep 2 = 0.118; Wolbachia per cell robust z, rep 3 = 0.625; inactive. For modSP #2, the entry reads Wolbachia per cell robust z, rep 1 = -0.583; Wolbachia per cell robust z, rep 2 = -0.652; Wolbachia per cell robust z, rep 3 = 0.352; inactive. For modSP #3, the entry reads Wolbachia per cell robust z, rep 1 = -1.06; Wolbachia per cell robust z, rep 2 = -1.56; Wolbachia per cell robust z, rep 3 = -0.745; inactive. For Phf5a the deposit lists Wolbachia per cell robust z, rep 1 = 0.646; Wolbachia per cell robust z, rep 2 = 1.91; Wolbachia per cell robust z, rep 3 = 0.0815; inactive. Against nito, the values are Wolbachia per cell robust z, rep 1 = 0.252; Wolbachia per cell robust z, rep 2 = 1.59; Wolbachia per cell robust z, rep 3 = 0.694; inactive. After knock-down of CG7384, the record shows Wolbachia per cell robust z, rep 1 = 0.387; Wolbachia per cell robust z, rep 2 = 0.513; Wolbachia per cell robust z, rep 3 = -0.285; inactive.

Records above whose target name starts with N or n:
ND-23 | Wolbachia per cell robust z, rep 1: -0.654; Wolbachia per cell robust z, rep 2: 0.572; Wolbachia per cell robust z, rep 3: -0.489; outcome: inactive
nito | Wolbachia per cell robust z, rep 1: 0.252; Wolbachia per cell robust z, rep 2: 1.59; Wolbachia per cell robust z, rep 3: 0.694; outcome: inactive
